This data set in a line: Secondary structure by CD spectroscopy. Format: physicochemical. The conditions noted are these: for conformation in phosphate buffer: 30 μM peptide, 10 mM sodium phosphate buffer pH 7.2.

Data on five compounds can be found in patent US20040072990A1, “Antimicrobial peptides with reduced hemolysis and methods of their use” (priority 2002, published 2004).

Residues, ends and D or L forms follow the SMILES beside them.

Turning to `CC[C@H](C)[C@@H]1NC(=O)[C@H](Cc2c[nH]c3ccccc23)NC(=O)[C@H](CCCNC(=N)N)NC(=O)[C@H](CCCNC(=N)N)NC(=O)[C@H](Cc2c[nH]c3ccccc23)NC(=O)[C@H](CCCCN)NC1=O` [Pac 301 C, K W R R W I] (cyclo(KWRRWI); ring closure inferred), the “conformation in phosphate buffer” value is “unordered” and the “conformation in SDS” value was “unordered”.
On to `CC[C@H](C)[C@@H]1NC(=O)[C@H](Cc2c[nH]c3ccccc23)NC(=O)[C@H](CCCCN)NC(=O)[C@H]([C@@H](C)CC)NC(=O)[C@H](Cc2c[nH]c3ccccc23)NC(=O)[C@H](CCCCN)NC1=O` [Pac-305 C, K W I K W I] (cyclo(KWIKWI); ring closure inferred), for which the “conformation in phosphate buffer” value is given as “unordered” and the “conformation in SDS” value is recorded as “unordered”.
For `CC[C@H](C)[C@@H]1NC(=O)[C@H](Cc2ccccc2)NC(=O)[C@H](CCCCN)NC(=O)[C@H]([C@@H](C)CC)NC(=O)[C@H](Cc2ccccc2)NC(=O)[C@H](CCCCN)NC(=O)[C@H]([C@@H](C)CC)NC(=O)[C@H](Cc2ccccc2)NC(=O)[C@H](CCCCN)NC1=O` [Pac-522 C, K F I K F I K F I] (cyclo(KFIKFIKFI); ring closure inferred), the “conformation in phosphate buffer” value was “unordered” and the “conformation in SDS” value is recorded as “unordered”.
Consider `CC[C@H](C)[C@H](NC(=O)[C@H](Cc1ccccc1)NC(=O)[C@H](CCCCN)NC(=O)[C@@H](NC(=O)[C@H](Cc1ccccc1)NC(=O)[C@H](CCCCN)NC(=O)[C@@H](NC(=O)[C@H](Cc1ccccc1)NC(=O)[C@@H](N)CCCCN)[C@@H](C)CC)[C@@H](C)CC)C(N)=O` [Pac-522 L, K F I K F I K F I] (H-KFIKFIKFI-NH2; N-terminus assumed), for which the “conformation in phosphate buffer” value is “unordered” and the “conformation in SDS” value was “slightly ordered”.
`CC[C@H](C)[C@@H]1NC(=O)[C@H](Cc2c[nH]c3ccccc23)NC(=O)[C@H](CCCNC(=N)N)NC(=O)[C@H](C(C)C)NC(=O)[C@H](Cc2c[nH]c3ccccc23)NC(=O)[C@H](CCCNC(=N)N)NC(=O)[C@H](CCCNC(=N)N)NC(=O)[C@H](Cc2c[nH]c3ccccc23)NC(=O)[C@H](CCCCN)NC1=O` [Pac-525 C, K W R R W V R W I] (cyclo(KWRRWVRWI); ring closure inferred): the “conformation in phosphate buffer” value is reported as “unordered” and the “conformation in SDS” value is given as “unordered”.
